Assay results published in article PMC10375895, “Repurposed Fenoprofen Targeting SaeR Attenuates Staphylococcus aureus Virulence in Implant-Associated Infections” (ACS Central Science, 2023).
For at least one entry, the source does not settle the construct or the ends of the probe. At least one verdict rests on a figure or table, not on a statement of the authors.

Protein sequences, listed by entry. Tags and fused reporters are not part of them. Lines headed by an entry give the natural chain unless they say otherwise; changes in a name come on top.
UniProt Q7A1J1: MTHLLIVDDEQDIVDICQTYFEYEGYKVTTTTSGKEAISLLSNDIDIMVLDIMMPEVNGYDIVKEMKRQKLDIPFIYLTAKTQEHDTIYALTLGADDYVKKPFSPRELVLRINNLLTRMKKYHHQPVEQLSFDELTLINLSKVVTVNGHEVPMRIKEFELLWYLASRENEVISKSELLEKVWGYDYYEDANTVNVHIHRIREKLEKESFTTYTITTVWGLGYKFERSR

Molecular target: SaeR, phosphorylated (6His-SaeR) (UniProt Q7A1J1)
Experiment: EMSA
Conditions: recombinant protein, protein details: 6His (pET28a, BamHI/XhoI), label: biotin (EMSA Probe Biotin Labeling Kit), probe letters rebuilt from the primers and the genome

Measured: binding result

GCATTTCAATTTCGAGGGTTAGTCAAAGTTGAATAAATTCTTTATGAAACAAGGAAAAGACATAGCTAATTCTATTGATTAATTTCTTTAAAACTAATGATTTGTTTGATTTAAAAATGTAATCGATTGCAATATAAAAATACAAATATCTTAGAATTAAATCAATTAATTAACTATTAAATAAAAATTAACTATATATTAACTACTGTAAATTAATAAATAGAAATAGAGAAAAAGGGTATTAATTATGTTTGGAATTTCGTCGGGAATAAATTTTGCCATTACATAGAAATATCTAATA (double strand) [hla promoter fragment (biotin)]
binds: SaeR phosphorylated in mixture with SaeSC and ATP | ibuprofen (no effect on shift) | no drug
